Results deposited as PubChem BioAssay AID624099 (ICCB-Longwood, 2012).

- Test: 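Human genes that papillomavirus E2 requires to repress the HPV18 LCR promoter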 (primary screen)
- Cell system: human C33A cervical carcinoma cells (HPV-negative) stably expressing BPV1 E2 and an HPV18 LCR luciferase reporter
- Reagents: siRNA pool against human genes, 40 nM
- Timing: 72 h
- Detection: 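Per-well luciferase luminescence, z-scored on each plate against the plate mean and SD with control wells left out, then averaged across three replicate plates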
- Direction: mean z-score and z-score: higher = stronger reporter signal, weaker E2 silencing
- Hit rule: 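Mean z ≥ 2 together with z ≥ 2 in two or more of the three replicates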
This is an unselected part of about 21,000 reagents. In the full data, 497 (2.4%) were called active. 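Higher z means weaker E2 silencing; only reporter increases were scored, and knock-downs that hurt cell survival may mask genuine repressor factors.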 Entries without a mark were called inactive. The numbers tell different reagents against one gene apart. No sequences are given here.

Gene	reagent	mean z-score	z-score, replicate A	z-score, replicate B	z-score, replicate C
ZNF552 (zinc finger protein 552)	1	0.13	0.43	0.25	-0.29
NDFIP2 (Nedd4 family interacting protein 2)	1	-1.59	-1.54	-1.62	-1.62
CRLF3 (cytokine receptor like factor 3)	1	-0.11	-0.19	-0.08	-0.05
RBMY1F (RNA binding motif protein Y-linked family 1 member F)	1	-0.79	-0.69	-1.16	-0.52
HECA (HECA ribonucleoprotein granule regulator)	1	0.63	0.64	0.69	0.56
SRSF8 (serine and arginine rich splicing factor 8)	1	0.36	0.32	0.67	0.09
VAV1 (vav guanine nucleotide exchange factor 1)	1	-0.35	-0.06	-0.56	-0.42
IRX4 (iroquois homeobox 4)	1	2.17 (active)	1.99	2.19	2.33
BCO1 (beta-carotene oxygenase 1)	1	1.06	0.88	1.1	1.22
MSANTD1 (Myb/SANT DNA binding domain containing 1)	1	-0.04	0.12	-0.18	-0.06
ZNF185 (zinc finger protein 185 with LIM domain)	1	-0.63	-0.48	-0.77	-0.64
RNPS1P1 (RNA binding protein with serine rich domain 1 pseudogene 1)	1	-0.77	-0.83	-0.88	-0.61
LBX2 (ladybird homeobox 2)	1	-1.22	-1.35	-1.17	-1.14
SNCG (synuclein gamma)	1	0.4	0.55	0.25	0.4
APLN (apelin)	1	1.26	1.36	1.33	1.08
CC2D2A (coiled-coil and C2 domain containing 2A)	1	0.76	0.7	0.75	0.81
PRG3 (proteoglycan 3, pro eosinophil major basic protein 2)	1	-0.42	-0.41	-0.41	-0.43
HOMER3 (homer scaffold protein 3)	1	0.18	0.32	0.17	0.04
HNMT (histamine N-methyltransferase)	1	1.56	1.09	1.83	1.75
CDCA7 (cell division cycle associated 7)	1	0.26	0.21	0.22	0.37
EML3 (EMAP like 3)	1	0.19	0.06	0.54	-0.02
AHRR (aryl hydrocarbon receptor repressor)	1	-0.29	-0.25	-0.36	-0.27
CWC25 (CWC25 spliceosome associated protein)	1	0.56	0.41	0.71	0.55
CAPRIN2 (caprin family member 2)	1	-0.48	-0.38	-0.27	-0.79
TMEM94 (transmembrane protein 94)	1	-0.32	-0.25	-0.06	-0.66
CSHL1 (chorionic somatomammotropin hormone like 1)	1	1.04	0.83	1.1	1.2
EIF4A1 (eukaryotic translation initiation factor 4A1)	1	-1.02	-0.66	-1.21	-1.2
TXLNG (taxilin gamma)	1	-1.2	-1.26	-1.37	-0.97
SULT4A1 (sulfotransferase family 4A member 1)	1	0.92	0.57	0.94	1.26
FAM230J (family with sequence similarity 230 member J)	1	0.81	0.97	0.89	0.58
MGP (matrix Gla protein)	1	-0.7	-0.58	-0.86	-0.68
DDX60L (DExD/H-box 60 like)	1	0.52	0.13	0.83	0.62
DDX60L (DExD/H-box 60 like)	2	-0.45	-0.19	-0.93	-0.24
ITPKC (inositol-trisphosphate 3-kinase C)	1	-0.97	-1.15	-1.06	-0.71
ZNF24 (zinc finger protein 24)	1	-0.78	-0.15	-1.07	-1.13
ADSS1 (adenylosuccinate synthase 1)	1	0.94	0.87	0.92	1.02
CYP26C1 (cytochrome P450 family 26 subfamily C member 1)	1	-0.71	-0.79	-0.64	-0.71
DDX1 (DEAD-box helicase 1)	1	-0.34	-0.24	-0.65	-0.14
LOC400933 (retired record)	1	-1.12	-0.78	-1.12	-1.46
KCNE3	1	-0.6	-0.78	-0.66	-0.36
ENTPD2 (ectonucleoside triphosphate diphosphohydrolase 2)	1	-0.31	-0.07	-0.23	-0.62
CDK9 (cyclin dependent kinase 9)	1	-0.98	-1.17	-1.32	-0.44
HYKK (hydroxylysine kinase)	1	0.53	0.93	-0.08	0.74
SLC27A3	1	-0.26	-0.22	-0.13	-0.43
THSD4 (thrombospondin type 1 domain containing 4)	1	-0.45	-0.65	-0.58	-0.12
ARK2N (arkadia (RNF111) N-terminal like PKA signaling regulator 2N)	1	0.59	0.23	0.73	0.82
SH2D1A (SH2 domain containing 1A)	1	-0.7	-0.49	-0.84	-0.76
SPI1 (Spi-1 proto-oncogene)	1	-0.25	-0.37	0.43	-0.8
ZNF217 (zinc finger protein 217)	1	0.2	0.01	0.18	0.41
FHIP2A (FHF complex subunit HOOK interacting protein 2A)	1	0.07	0.7	0	-0.48
MYH15 (myosin heavy chain 15)	1	0.02	0.27	-0.39	0.19
ASXL2 (ASXL transcriptional regulator 2)	1	-0.3	-0.65	-0.46	0.22
TAF5 (TATA-box binding protein associated factor 5)	1	-1.44	-1.44	-1.5	-1.38
IFT54 (intraflagellar transport 54)	1	-1.42	-1.6	-1.48	-1.18
SURF2 (surfeit 2)	1	-0.2	-0.09	-0.18	-0.32
C5orf34 (chromosome 5 open reading frame 34)	1	-0.82	-0.86	-0.8	-0.8
TEDDM1 (transmembrane epididymal protein 1)	1	-1.64	-1.53	-1.72	-1.69
CFAP161 (cilia and flagella associated protein 161)	1	0.28	0.52	0.03	0.31
MSL3B (MSL complex subunit 3B)	1	-0.3	-0.14	-0.41	-0.34
LNCRI (lncRNA radiation induced regulator of PLK1 and RAD51)	1	0.4	0.54	0.39	0.26
ANKRD18DP (ankyrin repeat domain 18D, pseudogene)	1	-0.85	-0.71	-1.05	-0.8
CREB3L2 (cAMP responsive element binding protein 3 like 2)	1	-1.78	-1.47	-1.74	-2.13
NR1I2 (nuclear receptor subfamily 1 group I member 2)	1	0.62	0.37	0.87	0.63
CCIN (calicin)	1	-0.07	-0.01	-0.36	0.16
BCAT2 (branched chain amino acid transaminase 2)	1	1.33	1.53	1.46	1
LOC400572 (retired record)	1	0.1	0.1	0.27	-0.05
CHST13 (carbohydrate sulfotransferase 13)	1	0.48	0.26	0.47	0.69
LGALS8 (galectin 8)	1	0.73	1.2	0.43	0.55
LOC389117 (retired record)	1	-0.45	-0.6	-0.33	-0.44
SLC25A53	1	-0.15	-0.41	0.04	-0.06
FKBP6 (FKBP prolyl isomerase family member 6 (inactive))	1	0.04	0.23	0.12	-0.22
POLR1A (RNA polymerase I subunit A)	1	-1.98	-1.84	-2.22	-1.89
GABRB3 (gamma-aminobutyric acid type A receptor subunit beta3)	1	0.47	0.61	0.66	0.15

Reformatted: 8 of the entries above.
HECA (HECA ribonucleoprotein granule regulator): mean z-score = 0.63; z-score, replicate A = 0.64; z-score, replicate B = 0.69; z-score, replicate C = 0.56
SRSF8 (serine and arginine rich splicing factor 8): mean z-score = 0.36; z-score, replicate A = 0.32; z-score, replicate B = 0.67; z-score, replicate C = 0.09
VAV1 (vav guanine nucleotide exchange factor 1): mean z-score = -0.35; z-score, replicate A = -0.06; z-score, replicate B = -0.56; z-score, replicate C = -0.42
IRX4 (iroquois homeobox 4): mean z-score = 2.17 (active); z-score, replicate A = 1.99; z-score, replicate B = 2.19; z-score, replicate C = 2.33
BCO1 (beta-carotene oxygenase 1): mean z-score = 1.06; z-score, replicate A = 0.88; z-score, replicate B = 1.1; z-score, replicate C = 1.22
MSANTD1 (Myb/SANT DNA binding domain containing 1): mean z-score = -0.04; z-score, replicate A = 0.12; z-score, replicate B = -0.18; z-score, replicate C = -0.06
ZNF185 (zinc finger protein 185 with LIM domain): mean z-score = -0.63; z-score, replicate A = -0.48; z-score, replicate B = -0.77; z-score, replicate C = -0.64
RNPS1P1 (RNA binding protein with serine rich domain 1 pseudogene 1): mean z-score = -0.77; z-score, replicate A = -0.83; z-score, replicate B = -0.88; z-score, replicate C = -0.61
